Results as given in US20100047237A1.

Target: VD9 (germline Vκ1 light chain variable domain), wild type
Assay: cell-based or functional assay

B1: synthetic "zipper" peptide PL (QTAEF) (peptide)
peptide: QTAEF
modifications: not checked
**Q.** For B1, which fibrillogenesis of VD9 (ThT fluorescence) (fold molar excess) is on record?
**A.** The fibrillogenesis of VD9 (ThT fluorescence) (fold molar excess) was 10.
